A mixed list of measured activities; the numbers were collected in NIAID ChemDB.

All rows: tests in culture; species: HIV-1

Two numbers with a dash give a range or band.

| smiles | strain | cell line | read-out | method | mutations | value |
|---|---|---|---|---|---|---|
| Nc1nc(NC2CC2)c2ncn([C@H]3C=C[C@@H](CO)C3)c2n1 | NL4-3 | CEM-GFP | EC50 | flow cytometry |  | 0.08975 µM |
| O=C(Nc1cc(-c2ccc3c(c2)CCCC3)[nH]n1)c1ccc(-c2ccncc2)s1 | NL4-3 | MT-4 | EC50 | luminescence | K103N | 3.36 µM |
| CC(C)(C)NC(=O)[C@@H]1CN(Cc2cccnc2)CCN1C[C@@H](O)C[C@@H](Cc1ccccc1)C(=O)N[C@H]1c2ccccc2C[C@H]1O | PI-resistant | PBMC | EC50 | p24 | PR-M46I L63P V82T I84V | 0.1019 µM |
| CC(C)(C)NC(=O)[C@@H]1C[C@@H]2CCCC[C@@H]2CN1C[C@@H](O)[C@H](Cc1ccccc1)NC(=O)[C@H](CC(N)=O)NC(=O)c1ccc2ccccc2n1 |  |  | EC50 |  |  | 0.002–0.01 µM |
| Cc1cn([C@H]2C=C[C@@H](COP(=O)(O)OCc3ccccc3)O2)c(=O)[nH]c1=O |  | CEM + CEM-SS | EC50 | cytopathic effect |  | 0.016 µM |
| CCCCOCc1cn([C@H]2C[C@H](N=[N+]=[N-])[C@@H](CO)O2)c(=O)[nH]c1=O | IIIB | MT-4 | EC50 | ELISA / antigen |  | >100 µM |
| CC(C)=CCN1c2cc(Cl)cc3[nH]c(=S)n(c23)C[C@@H]1C |  | MT-4 | EC95 |  | RT-L74V | 0.05 µM |
| Cc1cn([C@H]2C[C@H](N=[N+]=[N-])[C@@H](CO)O2)c(=O)[nH]c1=O | IIIB | MT-4 | EC50 | cytopathic effect / MTS |  | 0.0004 µM |
| CC(=O)O[C@@H]1CSSC[C@H]1OC(C)=O | RF | CEM + CEM-SS | EC50 | cytopathic effect / XTT |  | >200 µM |
| Nc1nc(N)c2ncn([C@H]3CC[C@@H](CO)O3)c2n1 | NL4-3 | MT-2 | EC50 |  |  | 19.12 µM |
| Cc1cn([C@H]2C[C@H](N=[N+]=[N-])[C@@H](CO)O2)c(=O)nc1N | LAV | PBMC | EC50 | RT activity |  | 0.09 µM |
| CC(C)Nc1cccnc1N1CCN(C(=O)c2cc3ccc(F)cc3[nH]2)CC1 | D34 | PBMC | EC50 | p24 |  | 0.0055 µM |
| CCc1cn([C@H]2C[C@H](N=[N+]=[N-])[C@@H](CO)O2)c(=O)[nH]c1=O | IIIB | MT-4 | EC50 | ELISA / antigen |  | 64 µM |
| Cn1cnc2c(NCc3ccccc3)nc(NCCO)nc21 | UG/92/029 SI CLADE A | PBMC | EC50 | p24 |  | >10 µM |
| C=O.Cc1cn(C2CC(N(N)N)C(COP(N)(=O)O)O2)c(=O)[nH]c1=O |  | MT-4 | EC50 |  |  | 0.339 µM |
| Nc1nc(N2CCCC2)c2ncn([C@H]3C=C[C@@H](CO)O3)c2n1 | NL4-3 | MT-2 | EC50 |  |  | 11.07 µM |
| O=c1[nH]cnc2c1ncn2[C@H]1CC[C@@H](CO)O1 | 7076 CLADE D CLADE D | PBMC | EC50 | p24 |  | 3.83 µM |
| O=c1[nH]cnc2c1ncn2[C@H]1CC[C@@H](CO)O1 | NL4-3 | CEM-GFP | EC50 | p24 / ELISA |  | 0.0275 µM |
| Cc1cc(C#N)cc(C)c1Oc1nc(Nc2ccc(C#N)cc2)nc(N)c1Br | IIIB | MT-4 | EC50 | MTT |  | 0.0041 µM |
| Cc1ccnc(SC(F)(F)c2nc3ccccc3o2)n1 | IIIB | MT-4 | EC50 | GFP / fluorescence |  | 0.11 µM |
| Cc1nnc(C(=O)NC(C)(C)c2nc(C(=O)NCc3ccc(F)cc3)c(O)c(=O)n2C)o1 | NL4-3 | CEM-GFP | EC50 | flow cytometry |  | 0.0024 µM |
| COC(=O)[C@H](C)NP(=O)(OCC1C/C1=C/n1cnc2c(N)ncnc21)Oc1ccccc1 | LAI | MT-2 | EC50 | cytopathic effect / MTT |  | 0.0026 µM |
| Nc1ccn([C@H]2CC[C@@H](CO)O2)c(=O)n1 |  | CEM | EC50 |  |  | 1.5 µM |
| COC(=O)[C@H](C)NP(=O)(OC[C@H]1C/C1=C\n1cnc2c(N)nc(N)nc21)Oc1ccccc1 | LAI | MT-2 | EC50 | p24 |  | 2.4 µM |
| c1ccc(CNCc2ccc(CN3CCCNCCNCCCNCC3)cc2)nc1 | HE | MT-4 | EC50 | cytopathic effect / MTS |  | 0.0098 µM |
| O=S1CC(CO)(CO)CS1 | RF | CEM + CEM-SS | EC50 | cytopathic effect / XTT |  | >200 µM |
| C=S(=C)(C)c1ccc(CN2CCC(Nc3nc(Nc4c(C)cc(C)cc4C)c4[nH]cnc4n3)CC2)cc1 | RES056 | MT-4 | EC50 | MTT |  | >34.64 µM |
| Cc1cn([C@H]2C=C[C@@H](CO)O2)c(=O)[nH]c1=O |  | MT-2 | EC50 |  |  | 1.3 µM |
| O=C(NCc1ccc(F)cc1)c1nc(N2CCCCS2(=O)=O)c2cccnc2c1O | BaL | PBMC | EC50 | RT activity |  | 0.003 µM |
| CCOCc1cn([C@@H]2C[C@H](N=[N+]=[N-])[C@@H](CO)O2)c(=O)[nH]c1=O | IIIB | MT-4 | EC50 | ELISA / antigen |  | >100 µM |
| COC(C)(C)C(O)COc1c2ccoc2cc2oc(=O)ccc12 |  | H9 | EC50 |  |  | 33.3 µg/mL |
| CC(C)=CCOc1cc(NC(=S)c2ccsc2C)ccc1Cl | IIIB | CEM | EC50 | cytopathic effect | RT-L100I | 0.006 µg/mL |
| CC(C)(O)[C@H](O)COc1c2occc2cc2ccc(=O)oc12 |  | H9 | EC50 |  |  | 0.115 µg/mL |
| Cc1cc(C)c(Oc2ccc(N)c(NC3CCN(Cc4ccc(S(C)(=O)=O)cc4)CC3)n2)c(C)c1 | IIIB | MT-4 | EC50 | MTT |  | 0.116 µg/mL |
| O=C(Nc1cc(-c2ccc3c(c2)CCCC3)[nH]n1)c1ccc(-c2cncnc2)s1 | NL4-3 | MT-4 | EC50 | luminescence | WT | 1.93 µM |
| C[C@@H]1c2[nH]c(N)nc2[C@@]2(O)C[C@@H]1C1C(c3cnc(-c4c[nH]c5cc(Br)ccc45)c(=O)[nH]3)=CNC1C2=O |  | MT-4 | EC50 | syncytia |  | 0.91 µM |
| Nc1nc(=O)n([C@H]2CC[C@@H](CO)O2)cc1F |  | CEM | EC50 |  |  | 2 µM |
| Cc1cc(C)c(Oc2ccc(N)c(NC3CCN(Cc4ccncc4)CC3)n2)c(C)c1 | IIIB | MT-4 | EC50 | MTT | Resistant strain (K103N + Y181C) | 2.5 µM |
| c1cc(CN2CCCNCCNCCCNCC2)ccc1CN1CCCNCCNCCCNCC1 | NL4-3 | MT-4 | EC50 | MTT |  | 0.06 µM |
| Cc1cn([C@H]2C[C@H](N=[N+]=[N-])[C@@H](COP(=O)(OCc3ccccc3)OCc3ccccc3)O2)c(=O)[nH]c1=O |  | CEM + CEM-SS | EC50 |  |  | 0.01 µM |
| Nc1ccn([C@H]2CC[C@@H](COP(=O)(OCC(F)(F)F)OCC(F)(F)F)O2)c(=O)n1 | RF | C8166 | EC50 | antigen |  | 30 µM |
| Cc1cc(C)c(Nc2ccc([N+](=O)[O-])c(NC3CCN(Cc4ccncc4)CC3)n2)c(C)c1 | IIIB | MT-4 | EC50 | MTT | Resistant strain (K103N + Y181C) | >31 µM |
| CC(=O)O[C@@H]1CSS(=O)C[C@H]1OC(C)=O | RF | CEM + CEM-SS | EC50 | cytopathic effect / XTT |  | >22.1 µM |
| CC(C)(O)C(O)COc1c2ccoc2cc2oc(=O)ccc12 |  | H9 | EC50 |  |  | 10 µg/mL |
| Cc1cc(C)c(Nc2nc(NC3CCN(Cc4ccccn4)CC3)nc3nc[nH]c23)c(C)c1 | RES056 | MT-4 | EC50 | MTT |  | >114 µM |
| CC(C)=CCOc1cc(NC(=S)c2ccoc2C)ccc1Cl | IIIB | CEM | EC50 | cytopathic effect | RT-L100I | 0.008 µg/mL |
| Cc1cn([C@@H]2O[C@H](CO)C3(OS(=O)(=O)C=C3N)[C@H]2O)c(=O)[nH]c1=O | IIIB | MT-4 | EC50 | cytopathic effect / trypan blue |  | >300 µM |
| Cc1cn([C@H]2C=C[C@@H](CO)O2)c(=O)[nH]c1=O | LAV | CEM | EC50 | p24 |  | 0.15 µM |
| Cc1cc(C)c(Nc2nc(NC3CCN(Cc4ccncc4)CC3)nc3nc[nH]c23)c(C)c1 | IIIB | MT-4 | EC50 | MTT |  | 18.21 µM |
| Cc1cn([C@H]2C[C@H](N=[N+]=[N-])[C@@H](CO)O2)c(=O)[nH]c1=O | IIIB | ACH-2(HIV-1(IIIB)) + ACH2 | EC50 | RT activity |  | >1 µg/mL |
| CC[C@@H](C)C(=O)O[C@H]1C(=O)O[C@@H]2C[C@H]3C(C)=CC(=O)[C@@H](O)[C@]3(C)[C@H]3[C@@H](O)[C@H](O)[C@@]4(C)OC[C@]32[C@@H]14 |  | PBMC | EC50 | p24 |  | 0.57 µM |
| Nc1nc2c(ncn2[C@H]2CC[C@@H](CO)O2)c(=O)[nH]1 | NL4-3 | MT-2 | EC50 |  |  | 7.29 µM |
| O=C(/C=C/c1ncc(-c2ccccc2)cn1)Nc1cc(-c2ccc3c(c2)CCCC3)[nH]n1 | NL4-3 | MT-4 | EC50 | luminescence | WT | 0.99 µM |
| [N-]=[N+]=N[C@H]1C[C@H](n2cc(CO)c(=O)[nH]c2=O)O[C@@H]1CO | IIIB | MT-4 | EC50 | ELISA / antigen |  | >500 µM |
| O=C(/C=C/c1ncc(-c2cccnc2)cn1)Nc1cc(-c2ccc3c(c2)CCCC3)[nH]n1 | NL4-3 | MT-4 | EC50 | luminescence | K103N | 0.26 µM |
| Nc1nccc2c1ncn2[C@@H]1C[C@H](CO)[C@@H](O)[C@H]1O | A012 PRE-AZT | PBL | EC50 | p24 |  | 0.141 µM |
| CCC(C)Sc1nc(Cc2ccccc2)c(C)c(=O)[nH]1 | IIIB | MT-4 | EC50 | cytopathic effect / MTT |  | 0.06 µM |
| Nc1ncnc2c1ncn2[C@H]1CC[C@@H](CO)O1 | IIIB | MT-2 | EC50 | syncytia |  | 0.2 µM |
| CC(C)=CCOc1c2occc2cc2ccc(=O)oc12 |  | H9 | EC50 |  |  | <0.1 µg/mL |
| CNc1nc(N)nc2c1ncn2[C@H]1CC[C@@H](CO)O1 | NL4-3 | MT-2 | EC50 |  |  | >20 µM |
| O=C(CO)N[C@@H]([C@@H](O)[C@H](O)[C@H](O)CO)[C@@H](O)C(=O)C(=O)O | MN | PBMC | EC50 | p24 |  | <6.2 µg/mL |
| Cc1occc1C(=S)Nc1ccc(Cl)c(/C=N/OC(C)(C)C)c1 | IIIB | CEM | EC50 | cytopathic effect | RT-Y181C | 0.03 µg/mL |
| O=S1CCCCS1 | RF | CEM + CEM-SS | EC50 | cytopathic effect / XTT |  | >26.2 µM |
| Nc1ncnc2c1ncn2[C@@H]1O[C@H](CO)C=C[C@H]1F |  |  | EC50 |  |  | >100 µg/mL |
| Cc1cn([C@H]2C[C@H](N=[N+]=[N-])[C@@H](COP(=O)(O)OCc3ccccc3)O2)c(=O)[nH]c1=O |  | MT-4 | EC50 | cytopathic effect |  | 0.014 µM |
| Cc1cn([C@@H]2O[C@H](CO[Si](C)(C)C(C)(C)C)C3(OS(=O)(=O)C=C3N)[C@H]2O[Si](C)(C)C(C)(C)C)c(=O)n(C)c1=O | IIIB | CEM | EC50 | cytopathic effect / trypan blue |  | 0.033 µM |
| COc1ccc2c(c1)COP(=O)(OC[C@@H]1C=C[C@H](n3cnc4c(N)ncnc43)O1)O2 |  | CEM + CEM/0 | EC50 |  |  | 0.06 µM |
| Cc1cn([C@H]2C=C[C@@H](CO)O2)c(=O)[nH]c1=O |  | CEM + CEM TK- | EC50 |  |  | 14 µM |
| Cc1cn([C@H]2C[C@H](N=[N+]=[N-])[C@@H](CO)O2)c(=O)[nH]c1=O | DV | Macrophage | EC50 | RT activity |  | 0.0008 µM |
| Cc1cn([C@H]2O[C@H](CO)C=C2F)c(=O)nc1N | LAV | PBMC | EC50 | RT activity |  | >100 µM |
| O=S1C[C@@H](O)[C@@H](O)CS1 | RF | CEM + CEM-SS | EC50 | cytopathic effect / XTT |  | >103.3 µM |
| Cc1cc(C#N)cc(C)c1Oc1ccc(N)c(NC2CCN(Cc3ccc(C(N)=O)cc3)CC2)n1 | IIIB | MT-4 | EC50 | MTT |  | 0.036 µg/mL |
| Cc1cn([C@H]2C[C@H](N=[N+]=[N-])[C@@H](CO)O2)c(=O)[nH]c1=O | IIIB | C8166 | EC50 | cytopathic effect |  | 0.06 µM |
| Cc1cn(C=C2C[C@H]2CO)c(=O)[nH]c1=O | LAI | MT-2 | EC50 | cytopathic effect / MTT |  | >100 µM |
| Cc1cc(/C=C/C#N)cc(C)c1Nc1ccnc(Nc2ccc(C#N)cc2)n1 | NL4-3 | CEM-GFP | EC50 | flow cytometry |  | 0.001298 µM |

6 of the rows above, restated:

smiles,strain,cell line,read-out,method,mutations,value
Nc1ncnc2c1ncn2[C@@H]1O[C@H](CO)C=C[C@H]1F,,,EC50,,,>100 µg/mL
CC(C)(C)NC(=O)[C@@H]1C[C@@H]2CCCC[C@@H]2CN1C[C@@H](O)[C@H](Cc1ccccc1)NC(=O)[C@H](CC(N)=O)NC(=O)c1ccc2ccccc2n1,,,EC50,,,0.002–0.01 µM
Nc1nc(N)c2ncn([C@H]3CC[C@@H](CO)O3)c2n1,NL4-3,MT-2,EC50,,,19.12 µM
CC(C)=CCN1c2cc(Cl)cc3[nH]c(=S)n(c23)C[C@@H]1C,,MT-4,EC95,,RT-L74V,0.05 µM
CNc1nc(N)nc2c1ncn2[C@H]1CC[C@@H](CO)O1,NL4-3,MT-2,EC50,,,>20 µM
Cc1cn([C@H]2O[C@H](CO)C=C2F)c(=O)nc1N,LAV,PBMC,EC50,RT activity,,>100 µM

An empty or dashed field is not shown. Conditions beyond the fields shown may differ between rows. ECn is the concentration giving n% inhibition of infection, replication or growth.